Experimental data published in PubChem BioAssay AID1721 (National Center for Advancing Translational Sciences (NCATS), 2009).
Only a part is listed here, and it is no random draw. The source made the active and inactive calls. Calls follow the shape of the dose curve; as a rule, active = well fitted inhibition curve with a large enough effect; inconclusive = small, poorly fitted or top-dose-only effect, or another doubt; inactive = no such curve, though single readings can be large or run the other way.

Protein sequences, listed by entry. Tags and fused reporters are not part of them. Lines headed by an entry give the natural chain unless they say otherwise; changes in a name come on top.
UniProt Q27686: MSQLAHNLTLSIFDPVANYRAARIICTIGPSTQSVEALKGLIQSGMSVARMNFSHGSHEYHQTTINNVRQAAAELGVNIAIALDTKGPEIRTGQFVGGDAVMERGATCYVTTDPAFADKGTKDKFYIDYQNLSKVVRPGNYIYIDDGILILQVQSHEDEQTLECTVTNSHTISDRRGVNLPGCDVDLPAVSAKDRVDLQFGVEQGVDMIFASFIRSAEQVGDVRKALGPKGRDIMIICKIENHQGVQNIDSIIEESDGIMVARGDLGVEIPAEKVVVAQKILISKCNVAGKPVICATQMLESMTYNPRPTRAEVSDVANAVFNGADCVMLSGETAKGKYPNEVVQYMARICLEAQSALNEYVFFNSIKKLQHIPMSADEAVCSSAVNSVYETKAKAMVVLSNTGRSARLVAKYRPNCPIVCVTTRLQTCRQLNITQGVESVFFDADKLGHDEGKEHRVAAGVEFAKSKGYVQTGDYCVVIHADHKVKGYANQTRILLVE

target: Pyruvate kinase (Leishmania mexicana) (UniProt Q27686); test: qHTS Assay for Inhibitors of Leishmania Mexicana Pyruvate Kinase (LmPK); conditions: purified LmPK, Kinase-Glo ATP luminescence, 1 h; at 57.5 µM (top of the series)
Description: NIH Chemical Genomics Center [NCGC] Malcolm Walkinshaw, Hugh Morgan, Linda Gilmore University of Edinburgh, UK MLPCN Grant: 1 R03 MH085697-01 NCGC Assay Overview: Pyruvate kinase (L. Mexicana) (LmPK) enzyme was supplied as a highly purified (>95% pure) sulphate-free preparation from University of Edinburgh, UK and assayed for its ability to generate ATP from ADP using phosphoenolpyruvate (PEP) as a substrate. ATP generation was detected in a coupled reaction by luciferase-mediated luminescence, an ATP-dependent process. […] The enzyme was assayed at an intermediate level of activity to screen for both inhibitors and activators.
NCGC Assay Protocol Summary: Three uL of enzyme mix (kept on ice) in assay buffer (50 mM Imidazole pH7.2, 50 mM KCl, 7 mM MgCl2, 0.01% Tween 20, 0.05% BSA) containing PEP (0.5 mM final concentration) and LmPK (0.1 nM final concentration) was dispensed into white solid bottom 1,536 well microtiter plates. 23 nL of compound were delivered by a pin tool and 1 uL of ADP mix in assay buffer (r.t; 0.1 mM final ADP concentration) was added. Plates were incubated at room temperature for 1 hour. Two uL of detection mix (Kinase-Glo, Promega; at 4 degree Celsius protected from light) was added and luminescence read by a ViewLux (Perkin Elmer) at 1 second exposure/plate. Data were normalized to the uninhibited and AC100 inhibition (no enzyme). To monitor activation, the first column contained a five-fold concentration of LmPK (0.5 nM).
% is scaled to controls: 0 for no effect and ±100 for the full control effect.

For `Clc1n[nH]nc1-c1nn[nH][15n]1`, which activity change, negative = inhibition is on record?
The activity change, negative = inhibition was inactive: -3.33%.

Which activity change, negative = inhibition does the source give for `CCOP(=O)(NC(=NC(C)c1ccccc1)NC(C)c1ccccc1)OCC` (stereo unspecified) here?
Its activity change, negative = inhibition is inactive: -6.29%.

For `O=P1(Nc2ccccn2)COc2ccccc2OC1`, which activity change, negative = inhibition is on record?
The activity change, negative = inhibition was inactive: -4.58%.

Which activity change, negative = inhibition does the source give for `CCC1=CC2Cc3nc4ccc(Cl)cc4c(N)c3C(C1)C2` (stereo unspecified) here?
Its activity change, negative = inhibition is inactive: 3.02%.

`CCOP(=O)(Nc1ccc(C)cn1)OCC` was tested. Which activity change, negative = inhibition did it give?
The activity change, negative = inhibition was inactive: -2.23%.

With `CC(C)/C=N\N=C(\N)N[N+](=O)[O-]` as the compound, how does the activity change, negative = inhibition read?
Its activity change, negative = inhibition is inactive: -2.14%.

For `CN(C(=O)Cc1ccc(Cl)c(Cl)c1)[C@@H]1CCCC[C@H]1N1CCCC1`, which activity change, negative = inhibition is on record?
Its activity change, negative = inhibition is inactive: -1.41%.

With `O=[As](O)(c1ccccc1Br)c1ccccc1Br` as the compound, how does the activity change, negative = inhibition read?
The activity change, negative = inhibition was inactive: 3.09%.

For `O=C(Nc1ccncc1[N+](=O)[O-])c1ccc([N+](=O)[O-])cc1[N+](=O)[O-]`, which activity change, negative = inhibition is on record?
The activity change, negative = inhibition was inactive: 0.3%.

`O=C(COc1ccccc1)OC1CN2CCC1CC2` (stereo unspecified) was tested. Which activity change, negative = inhibition did it give?
The activity change, negative = inhibition was inactive: -3.27%.

Which activity change, negative = inhibition does the source give for `COP1(=S)c2c(C)nn(CCC#N)c2N=C(c2ccc(F)cc2)N1C` (stereo unspecified) here?
Its activity change, negative = inhibition is inactive: 4.87%.

With `CCC(C)N(CC(C)C)C(=S)SC(NC(C)=O)C(Cl)(Cl)Cl` (stereo unspecified) as the compound, how does the activity change, negative = inhibition read?
Its activity change, negative = inhibition is inactive: 3.63%.

`O=C(OC1CN2CCC1CC2)c1cccc([N+](=O)[O-])c1` (stereo unspecified) was tested. Which activity change, negative = inhibition did it give?
The activity change, negative = inhibition was inactive: -3.92%.

For `CCOC(=O)c1ccc(NC(=O)C(C)(CCl)SC)cc1` (stereo unspecified), which activity change, negative = inhibition is on record?
Its activity change, negative = inhibition is inactive: -0.203%.

Which activity change, negative = inhibition does the source give for `Cc1cc(SC(NC(=O)c2ccccc2)C(Cl)(Cl)Cl)nc(C(C)C)n1` (stereo unspecified) here?
Its activity change, negative = inhibition is inactive: 0.489%.

For `CCCCOc1ccc(C(=O)NCC2(N3CCCCC3)CCCCC2)cc1OC`, which activity change, negative = inhibition is on record?
The activity change, negative = inhibition was inactive: -3.38%.

How did the activity change, negative = inhibition turn out when `CCOC(=O)Nc1ccc([As](=O)(O)O)c(O)c1` was run?
Its activity change, negative = inhibition is inactive: -5.04%.

How did the activity change, negative = inhibition turn out when `O=P(Nc1ccccn1)(c1cccc2ccccc12)c1cccc2ccccc12` was run?
Its activity change, negative = inhibition is inactive: 1.16%.

How did the activity change, negative = inhibition turn out when `Cc1cc(SC(NC=O)C(Cl)(Cl)Cl)ncn1` (stereo unspecified) was run?
The activity change, negative = inhibition was inactive: 1.59%.

With `O=[N+]([O-])c1ccc(Nc2ccc(Oc3ccc([N+](=O)[O-])cc3[N+](=O)[O-])cc2)c([N+](=O)[O-])c1` as the compound, how does the activity change, negative = inhibition read?
Its activity change, negative = inhibition is inactive: -1.43%.

Which activity change, negative = inhibition does the source give for `CCOC(=O)Nc1cccc([As](=O)(O)O)c1` here?
The activity change, negative = inhibition was inactive: -2.43%.

For `Cc1ccc(OP(=O)(Nc2ccc([N+](=O)[O-])cn2)Oc2ccc(C)cc2)cc1`, which activity change, negative = inhibition is on record?
The activity change, negative = inhibition was inactive: 1.5%.

`Cc1ccc2nc3c(c(C)c2c1)CC(C(Cl)Cl)S3` (stereo unspecified) was tested. Which activity change, negative = inhibition did it give?
The activity change, negative = inhibition was inactive: -3.42%.

Which activity change, negative = inhibition does the source give for `O=[As](O)(c1ccc(O)cc1)c1ccccc1O` here?
The activity change, negative = inhibition was inactive: 1.81%.

`C[As](=O)(O)c1cccc(C(=O)O)c1` was tested. Which activity change, negative = inhibition did it give?
The activity change, negative = inhibition was inactive: -0.565%.

For `O=[N+]([O-])c1cc([N+](=O)[O-])c(-c2ccn[nH]2)s1`, which activity change, negative = inhibition is on record?
Its activity change, negative = inhibition is inactive: 3.97%.

Which activity change, negative = inhibition does the source give for `CC(C)NC(=O)NP(=O)(Oc1ccccc1)Oc1ccccc1` here?
Its activity change, negative = inhibition is inactive: -0.869%.

`CCN(CC)C(=S)SC(NC=O)C(Cl)(Cl)Cl` (stereo unspecified) was tested. Which activity change, negative = inhibition did it give?
The activity change, negative = inhibition was inactive: -4.63%.

For `ClCCSc1nnc(-c2cccnc2)o1`, which activity change, negative = inhibition is on record?
Its activity change, negative = inhibition is inactive: 5.46%.

Which activity change, negative = inhibition does the source give for `CC(C)c1ccc(OP(=O)(Nc2ccccn2)Oc2ccccc2F)cc1` (stereo unspecified) here?
The activity change, negative = inhibition was inactive: -0.791%.

How did the activity change, negative = inhibition turn out when `COc1cc(I)ccc1[As](=O)(O)O` was run?
Its activity change, negative = inhibition is inactive: -3.9%.

Which activity change, negative = inhibition does the source give for `COc1ccc2nc(NP(=O)(c3ccccc3)c3ccccc3)sc2c1` here?
The activity change, negative = inhibition was inactive: 2.4%.

With `Cc1c2c(nc3ccccc13)SC(C(Cl)Cl)C2` (stereo unspecified) as the compound, how does the activity change, negative = inhibition read?
The activity change, negative = inhibition was inactive: -0.424%.

`Cc1cc(=O)[nH]c(N[N+](=O)[O-])n1` was tested. Which activity change, negative = inhibition did it give?
Its activity change, negative = inhibition is inactive: -3.1%.

For `O=C(OC1CN2CCC1CC2)C12CC3CC(CC(C3)C1)C2` (stereo unspecified), which activity change, negative = inhibition is on record?
The activity change, negative = inhibition was inactive: 4.43%.

With `COc1ccc(N/C(=N/P(=O)(N2CCOCC2)N2CCOCC2)N2CCOCC2)cc1` as the compound, how does the activity change, negative = inhibition read?
Its activity change, negative = inhibition is inactive: 3.91%.
